The source of these data is publication PMC10713766.

This series relates to N[C@@H](CC(=O)O)C(=O)O. As to the kind of experiment: purified protein. To be noted: pH 7.0; 25.0 °C.

As to YPO0623 (Yersinia pestis), the Km was found to be 2.13 µM.

What is called Km is the substrate concentration at which the rate is half of its maximum.
